The exact form of at least one protein or probe is not confirmed.
Target: T1, 6xHis-DnaA (Mtb) (Mycobacterium tuberculosis) (UniProt P9WNW3)
T1 sequence: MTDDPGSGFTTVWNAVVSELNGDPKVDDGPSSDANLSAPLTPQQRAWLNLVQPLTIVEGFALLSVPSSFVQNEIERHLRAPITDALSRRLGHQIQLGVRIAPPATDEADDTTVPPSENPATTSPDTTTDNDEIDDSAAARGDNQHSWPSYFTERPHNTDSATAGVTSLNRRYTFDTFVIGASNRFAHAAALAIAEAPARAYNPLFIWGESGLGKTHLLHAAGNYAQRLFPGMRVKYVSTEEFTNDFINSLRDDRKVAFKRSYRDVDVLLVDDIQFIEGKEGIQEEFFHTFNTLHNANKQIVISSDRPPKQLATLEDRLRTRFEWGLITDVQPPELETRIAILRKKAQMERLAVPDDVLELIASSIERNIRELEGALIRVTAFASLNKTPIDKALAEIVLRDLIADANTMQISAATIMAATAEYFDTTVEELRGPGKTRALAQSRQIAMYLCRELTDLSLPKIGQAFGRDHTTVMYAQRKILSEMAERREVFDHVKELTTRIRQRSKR
Experiment: EMSA
Conditions: recombinant protein; protein details: N-term 6xHis, 3C protease site; label: IRDye 800 at 5' end of forward primer; probe letters rebuilt from the primers and the genome

CCCTACACGACGCTCTTCCCATCCGTCAGCGCTCCAAGCGCTAGCACGGCGTGTTCTTCCGACAACGTTCTTAAAAAAACTTCTCTCTCCCAGGTCACACCAGTCACAGAGATTGGCTGTGAGTGTCGCTGTGCACAAACCGCGCACAGACTCATACAGTCCCGGCGGTTCCGTTCACAACCCACGCCTCATCCCCACCGACCCAACACACACCCCACAGTCATCGCCACCGTCATCCACAACTCCGACCGACGTCGACCTGCACCAAGACCAGACTGTCCCCAAACTGCACACCCTCTAATACTGTTACCGAGATTTCTTCGTCGTTTGTTCTTGGAAAGACAGCGCTGGGGATCGTTCGCTGGATACCACCCGCATAACTGGCTCGTCGCGGTGGGTCAGAGGTCAATGATGAACTTTCAAGTTGACGTGAGAAGCTCTACGGTTGTTGTTCGACTGCTGTTGCGGCCGTCGTGGCGGGTCACGCGTCATGGGCATTCGTCGTTGGCAGTCCCCACGCTAGCGGGGCGCTAGCCACGGGATCGAACTCATCGTGAGGTGAAAGGGCGCAA (double strand) [oriC fragment]
Kd: 70 nM
